How the values were obtained:
[1] = biological target: BG505 SOSIP.664 gp140 trimer (HIV-1 (subtype A, BG505)); experiment: native gel or EMSA
[2] = biological target: BG505 SOSIP.664 gp140 trimer (HIV-1 (subtype A, BG505)); experiment: negative stain EM
[3] = biological target: BG505 SOSIP.664 gp140 trimer (HIV-1 (subtype A, BG505)); experiment: SEC

Measured: stoichiometry N

BG505 SOSIP.664 gp140 trimer (complex)
3: all assays above

From article PMC3777863
